PubChem BioAssay AID1259414 – Drosophila RNAi Screening Center, 2018
In all, the deposit lists about 24,000 reagents; shown is a random part of those that have a named target and a result. In the full data, about 1,210 (5%) were called active. 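Inactive calls also include excluded dsRNAs with several or no targets, genes unexpressed in JW18, and well A1, regardless of score.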 A number with no mark means an inactive call. A plus sign joins genes that one reagent is predicted to hit.

Purpose: 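Fly genes that alter Wolbachia amount inside host cells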 (primary screen)
Cells: Drosophila JW18 cells infected with Wolbachia
Reagents: long dsRNA against Drosophila genes, 0.25 µg dsRNA per well of a 384-well plate
Duration: 5 days
Treatment: cells persistently infected with Wolbachia before knock-down; no added drug
Read-out: 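Imaged fluorescence in situ signal for Wolbachia 23S rRNA per DAPI-counted host cell, given as a robust z-score within each plate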
Reading the numbers: Wolbachia per cell robust z: higher = more Wolbachia per host cell than the plate typical
Call rule: 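Hit when robust z is 1.5 or more, or -1.5 or less, in at least two of three replicates; excludes dsRNAs with several or no targets, genes not expressed in JW18 and well A1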

target gene | amplicon | Wolbachia per cell robust z, rep 1 | Wolbachia per cell robust z, rep 2 | Wolbachia per cell robust z, rep 3
CG12402 | DRSC14508 | -0.782 | 0.509 | -0.543
CG12402 | DRSC26872 | 0.975 | 0.668 | 1.15
kri | DRSC10515 | 0.871 | -0.56 | -2.45
CG3038 | DRSC18618 | 0.363 | 1.24 | -1.56
CG3038 | DRSC40776 | 0.104 | 0.126 | 0.462
CG7653 | DRSC01886 | 0.29 | 0.34 | 1.24
CG44838 | DRSC10179 | 1.58 | 1.41 | 1.97
CG44838 | DRSC10371 | -0.249 | 0.881 | 0.19
CG44838 | DRSC25107 | -7.58 | 1.05 | -9.94
CG44838 | DRSC28801 | 0.952 | 0.536 | -0.913
kuz | DRSC03555 | 1.15 | 1.24 | 0.411
kuz | DRSC40871 | 0.235 | 1.16 | 0.751
hkb | DRSC12377 | 1.21 | 0.171 | 1.36
hkb | DRSC23599 | -1.13 | -0.92 | -0.678
CG12519 | DRSC29810 | -1.05 | -0.589 | -1.31
GC1 | DRSC15322 | -0.295 | 0.444 | -0.596
GC1 | DRSC25627 | -1.9 (active) | -7.16 | -1.08
CG43376 | DRSC02537 | 1.13 | 0.411 | 1.15
mthl4 + mthl3 | DRSC25990 | -0.178 | 0.199 | -0.133
Fak | DRSC07426 | 0.534 | -0.673 | 1.01
Fak | DRSC26626 | 0.223 | 0.772 | 2.7
Ir75a | DRSC10188 | -0.708 | -0.565 | 0.568
Vps16A | DRSC16422 | -0.228 | -0.12 | 1.19
lmd | DRSC15618 | -1.77 | -0.696 | -1.13
lmd | DRSC29194 | 0.377 | -0.0787 | -0.361
mnb | DRSC20353 | -0.671 | 0.161 | 0.826
mnb | DRSC23347 | 0.129 | -0.845 | -3.77
mnb | DRSC24961 | -0.433 | 1.03 | -1.26
mnb | DRSC28430 | -0.799 | -0.846 | -1.18
RabX6 | DRSC08223 | -1.36 | 0.385 | 0.432
lncRNA:CR34046 | DRSC14075 | -6.66 | -1.07 | -1.22
lncRNA:CR34046 | DRSC30016 | -1.35 | -0.793 | -0.471
CG32206 | DRSC10094 | 0.384 | -0.812 | -0.406
CG32206 | DRSC10095 | 0.503 | 1.2 | -3.46
CG32206 | DRSC10096 | -1.33 | -0.627 | -1
CG32206 | DRSC11080 | -2.19 | -0.678 | -0.941
CG17343 | DRSC02606 | -1.37 | -5.69 | 1.17
CG17343 | DRSC22807 | -0.797 | 0.118 | -1.13
CG17343 | DRSC28706 | -1.75 | -1.76 | -2.73
CG10591 | DRSC09748 | -0.968 | 0.436 | -0.314
CG10591 | DRSC27468 | 0.821 | 0.651 | -0.235
CG4596 | DRSC15608 | 0.541 | 0.654 | -3.91
CG4596 | DRSC25914 | -0.904 | 0.247 | 1.8

In a second layout: results already given.
{"target gene":"Vps16A","amplicon":"DRSC16422","Wolbachia per cell robust z, rep 1":-0.228,"Wolbachia per cell robust z, rep 2":-0.12,"Wolbachia per cell robust z, rep 3":1.19}
{"target gene":"lmd","amplicon":"DRSC15618","Wolbachia per cell robust z, rep 1":-1.77,"Wolbachia per cell robust z, rep 2":-0.696,"Wolbachia per cell robust z, rep 3":-1.13}
{"target gene":"lmd","amplicon":"DRSC29194","Wolbachia per cell robust z, rep 1":0.377,"Wolbachia per cell robust z, rep 2":-0.0787,"Wolbachia per cell robust z, rep 3":-0.361}
{"target gene":"mnb","amplicon":"DRSC20353","Wolbachia per cell robust z, rep 1":-0.671,"Wolbachia per cell robust z, rep 2":0.161,"Wolbachia per cell robust z, rep 3":0.826}
{"target gene":"mnb","amplicon":"DRSC23347","Wolbachia per cell robust z, rep 1":0.129,"Wolbachia per cell robust z, rep 2":-0.845,"Wolbachia per cell robust z, rep 3":-3.77}
{"target gene":"mnb","amplicon":"DRSC24961","Wolbachia per cell robust z, rep 1":-0.433,"Wolbachia per cell robust z, rep 2":1.03,"Wolbachia per cell robust z, rep 3":-1.26}
{"target gene":"mnb","amplicon":"DRSC28430","Wolbachia per cell robust z, rep 1":-0.799,"Wolbachia per cell robust z, rep 2":-0.846,"Wolbachia per cell robust z, rep 3":-1.18}
{"target gene":"RabX6","amplicon":"DRSC08223","Wolbachia per cell robust z, rep 1":-1.36,"Wolbachia per cell robust z, rep 2":0.385,"Wolbachia per cell robust z, rep 3":0.432}
{"target gene":"lncRNA:CR34046","amplicon":"DRSC14075","Wolbachia per cell robust z, rep 1":-6.66,"Wolbachia per cell robust z, rep 2":-1.07,"Wolbachia per cell robust z, rep 3":-1.22}
{"target gene":"lncRNA:CR34046","amplicon":"DRSC30016","Wolbachia per cell robust z, rep 1":-1.35,"Wolbachia per cell robust z, rep 2":-0.793,"Wolbachia per cell robust z, rep 3":-0.471}
{"target gene":"CG32206","amplicon":"DRSC10094","Wolbachia per cell robust z, rep 1":0.384,"Wolbachia per cell robust z, rep 2":-0.812,"Wolbachia per cell robust z, rep 3":-0.406}

The list goes on.
target gene | amplicon | Wolbachia per cell robust z, rep 1 | Wolbachia per cell robust z, rep 2 | Wolbachia per cell robust z, rep 3
CG14505 | DRSC06476 | -1.34 | -6.63 | -1.87
barr | DRSC03488 | 1.8 (active) | 2.63 | 1.23
CG11586 | DRSC08203 | 0.558 | 1.09 | 0.322
CG11586 | DRSC27459 | 0.206 | 0.95 | 0.455
Erk7 | DRSC18127 | -4.71 | 1.23 | -0.0487
Erk7 | DRSC18227 | 0.0358 (active) | -5.7 | -3.91
Erk7 | DRSC21895 | -2.04 | -1.39 | 0.0944
CG7328 | DRSC10812 | -0.782 | -0.236 | -7.16
fiz | DRSC20188 | -0.416 (active) | -7.16 | -1.68
CG41520 | DRSC21102 | -1.19 | -1.27 | -0.432
CG41520 | DRSC37912 | -0.0985 | 0.147 | 0.888
slow | DRSC08589 | 0.0198 | -1.15 | -0.441
slow | DRSC08590 | -1.75 | -0.131 | -0.447
slow | DRSC26083 | 0.559 | -0.698 | 0.506
Doa | DRSC13892 | -0.315 | -0.258 | -0.438
Doa | DRSC13893 | -1.04 | -0.231 | -0.748
Doa | DRSC13896 | -0.734 | -0.834 | -0.458
Doa | DRSC13897 | -1.86 (active) | -3.02 | -2.06
Doa | DRSC16650 | -8.53 | 0.388 | 0.695
Doa | DRSC26631 | -0.256 | 0.305 | 0.178
Doa | DRSC40713 | 0.938 | 1.2 | 0.0268
CG7272 | DRSC10795 | -0.278 | -0.74 | -0.196
nkt | DRSC10144 | 0.534 | 0.865 | -0.0783
CG44434 + CG44433 + CG44435 | DRSC06517 | 0.734 | 0.596 | -1.68
CG44434 + CG44433 + CG44435 | DRSC06518 | -4.48 | -0.0831 | 0.371
